A mixed list of measured activities; the numbers were collected in NIAID ChemDB.

All rows: growth or infection tests; agent: Mycobacterium avium intracellulare

Lines come from different laboratories, so protocols vary.

| SMILES | measure | strain or isolate | value |
|---|---|---|---|
| CCCCNC(=O)O[C@H]1C(O[C@@H]2[C@@H](C)[C@H](O[C@H]3C[C@@](C)(OC)[C@@H](OC(C)=O)[C@H](C)O3)[C@@H](C)C(=O)O[C@H](CC)[C@@](C)(O)[C@H](O)[C@@H](C)/C(=N/OCCCC3CCCCC3)[C@H](C)CC2(C)O)O[C@H](C)C[C@@H]1N(C)C | MIC | 20066 | 0.2 µg/mL |
| COc1ccc2c(c1)N(C[C@H](C)CN(C)C)c1ccccc1S2 | MIC | R 6550 | 50 µg/mL |
| COc1cc2ccnc3c2c(c1OC(=O)c1ccc(C(C)(C)C)cc1)N(C)C=C3 | EC50 | - | 0.5 µg/mL |
| CN1C(NNC(=O)c2cccnc2)=NS(=O)(=O)c2ccc(Cl)cc21 | MIC | ATCC 13950 | >16 µg/mL |
| COc1cc2ccnc3c2c(c1O)N(C)C=C3 | EC50 | - | >15 µg/mL |
| CCNC(=O)[C@@H](NC(=O)Cc1ccccc1)[C@@H]1N[C@@H](C(=O)NCCNC(=O)[C@@H]2N[C@@H]([C@H](NC(=O)Cc3ccccc3)C(=O)NCC)SC2(C)C)C(C)(C)S1 | MIC | CIPT 140310019 | 25 µg/mL |
| CC[C@H]1OC(=O)[C@H](C)[C@@H](OC2C[C@@](C)(OC)[C@@H](O)[C@H](C)O2)[C@H](C)[C@@H](O[C@@H]2O[C@H](C)C[C@H](N(C)C)[C@H]2O)C(C)(O)C[C@@H](C)/C(=N\OCCOc2ccccc2)[C@H](C)[C@@H](O)[C@]1(C)O | MIC | 20066 | 3.13 µg/mL |
| CC(C)(C)OCOC(=O)c1cnccn1 | MBC | ATCC 13950 | 100 µg/mL |
| CN(C)CC/C=C1/c2ccccc2Sc2ccc(Cl)cc21 | MIC | E 48067 | 25 µg/mL |
| C#CCNC(=O)O[C@H]1C(O[C@@H]2[C@@H](C)[C@H](O[C@H]3C[C@@](C)(OC)[C@@H](OC(C)=O)[C@H](C)O3)[C@@H](C)C(=O)O[C@H](CC)[C@@](C)(O)[C@H](O)[C@@H](C)/C(=N/OCCCC3CCCCC3)[C@H](C)CC2(C)O)O[C@H](C)C[C@@H]1N(C)C | MIC | 20073 | 0.39 µg/mL |
| CC1(C)S[C@@H]2[C@H](NC(=O)[C@H](C(=O)[O-])c3ccsc3)C(=O)N2[C@H]1C(=O)[O-].[Na+].[Na+] | MIC | CIPT 140310034 | 25 µg/mL |
| CO[C@H]1/C=C/O[C@@]2(C)Oc3c(C)c(O)c4c(O)c(c5c(c4c3C2=O)NC2(CCN(CC(C)C)CC2)N=5)=NC(=O)/C(C)=C\C=C\[C@H](C)[C@H](O)[C@@H](C)[C@@H](O)[C@@H](C)[C@H](OC(C)=O)[C@@H]1C | MIC | 23-Feb | 0.25 µg/mL |
| CC(=O)NC[C@H]1CN(c2ccc(N3CCN(c4ccc([N+](=O)[O-])s4)CC3)c(F)c2)C(=O)O1 | MIC | 1211/96 | 8 µg/mL |
| CN(C)CCCN1c2ccccc2Sc2ccc(Cl)cc21 | MIC | R 8656 | 50 µg/mL |
| CC[C@H]1OC(=O)[C@H](C)[C@@H](O[C@H]2C[C@@](C)(OC)[C@@H](O)[C@H](C)O2)[C@H](C)[C@@H](O[C@@H]2O[C@H](C)C[C@H](N(C)C)[C@H]2O)[C@](C)(OC)C[C@@H](C)C(=O)[C@H](C)[C@@H](O)[C@]1(C)O | MIC | N-846 (HIV-) | 1 µg/mL |
| CCCCCCCCCCCCCCN(C)C(=O)O[C@H]1C(O[C@@H]2[C@@H](C)[C@H](O[C@H]3C[C@@](C)(OC)[C@@H](OC(C)=O)[C@H](C)O3)[C@@H](C)C(=O)O[C@H](CC)[C@@](C)(O)[C@H](O)[C@@H](C)/C(=N/OCCCC3CCCCC3)[C@H](C)CC2(C)O)O[C@H](C)C[C@@H]1N(C)C | MIC | 20075 | 0.2 µg/mL |
| Clc1ccc2c(c1)nc1cc(Nc3ccccc3)c(=NC3CCCCC3)cc-1n2-c1ccccc1 | MIC | 97002 | 0.5 µg/mL |
| CN[C@@H]1[C@H](O[C@H]2[C@H](O[C@H]3[C@H](O)[C@@H](O)[C@H](N=C(N)N)[C@@H](O)[C@@H]3N=C(N)N)O[C@@H](C)[C@]2(O)C=O)O[C@@H](CO)[C@H](O)[C@H]1O | MIC | CIPT 140310030 | >50 µg/mL |
| CCCCCCCCCCCCO/N=C1\[C@H](C)CC(C)(O)[C@H](O[C@@H]2O[C@H](C)C[C@H](N(C)C)[C@H]2O)[C@@H](C)[C@H](OC2C[C@@](C)(OC)[C@@H](O)[C@H](C)O2)[C@@H](C)C(=O)O[C@H](CC)[C@@](C)(O)[C@H](O)[C@H]1C | MIC | 20066 | 50 µg/mL |
| NC(=S)c1cnccn1 | MIC | ATCC 13950 | 100 µg/mL |
| Cc1onc(-c2ccccc2Cl)c1C(=O)N[C@@H]1C(=O)N2[C@@H]1SC(C)(C)[C@@H]2C(=O)O | MIC | CIPT 140310034 | 75 µg/mL |
| NNC(=O)c1ccncc1 | MIC | N-919 (HIV-) | 8 µg/mL |
| c1ccc(CSc2ncnc3ccccc23)cc1 | MIC | D 39/93 | 63 µM |
| COc1cc2ccnc3c2c(c1OC(=O)c1ccc(OC(F)(F)F)cc1)N(C)C=C3 | MIC | - | 5 µg/mL |
| CCN1C(NNC(=O)c2ccncc2)=NS(=O)(=O)c2ccccc21 | MIC | ATCC 13950 | >16 µg/mL |
| CCCCc1ccc(C(=O)Oc2c(OC)cc3ccnc4c3c2N(C)C=C4)cc1 | MIC | - | 1.3 µg/mL |
| CO[C@H]1/C=C/O[C@@]2(C)Oc3c(C)c(O)c4c(O)c(c5c(c4c3C2=O)NC2(CCN(CC(C)C)CC2)N=5)=NC(=O)/C(C)=C\C=C\[C@H](C)[C@H](O)[C@@H](C)[C@@H](O)[C@@H](C)[C@H](OC(C)=O)[C@@H]1C | MIC | N-499 (HIV-) | 0.0313 µg/mL |
| CCNC(=O)O[C@H]1C(O[C@@H]2[C@@H](C)[C@H](O[C@H]3C[C@@](C)(OC)[C@@H](OC(C)=O)[C@H](C)O3)[C@@H](C)C(=O)O[C@H](CC)[C@@](C)(O)[C@H](O)[C@@H](C)/C(=N/OCCCC3CCCCC3)[C@H](C)CC2(C)O)O[C@H](C)C[C@@H]1N(C)C | MIC | 20073 | 12.5 µg/mL |
| C[C@@H]1CN(c2c(F)c(N)c3c(=O)c(C(=O)O)cn(C4CC4)c3c2F)C[C@H](C)N1 | MIC50 | - | 6.25 µg/mL |
| CC[C@H]1OC(=O)[C@H](C)[C@@H](O[C@H]2C[C@@](C)(OC)[C@@H](O)[C@H](C)O2)[C@H](C)[C@@H](O[C@@H]2O[C@H](C)C[C@H](N(C)C)[C@H]2O)[C@](C)(OC)C[C@@H](C)C(=O)[C@H](C)[C@@H](O)[C@]1(C)O | MBC | N-260 | 16 µg/mL |
| CCc1ccc(C(=O)Oc2c(OC)cc3ccnc4c3c2N(C)C=C4)cc1 | EC50 | - | 0.8 µg/mL |
| CCCCCCCCNC(=O)O[C@H]1C(O[C@@H]2[C@@H](C)[C@H](O[C@H]3C[C@@](C)(OC)[C@@H](OC(C)=O)[C@H](C)O3)[C@@H](C)C(=O)O[C@H](CC)[C@@](C)(O)[C@H](O)[C@@H](C)/C(=N/OCCCC3CCCCC3)[C@H](C)CC2(C)O)O[C@H](C)C[C@@H]1N(C)C | MIC | 20066 | 0.2 µg/mL |
| COc1cc2ccnc3c2c(c1OC(=O)c1ccc(C#N)cc1)N(C)C=C3 | EC50 | - | >15 µg/mL |
| CCCCCCCCCCCCCCCCSc1ncnc2ccccc12 | MIC | D 38/92 | >1000 µM |
| OCCN1CCN(CCC=C2c3ccccc3Sc3ccc(Cl)cc32)CC1 | MIC | R 1631 | 12.5 µg/mL |
| c1ccc(CCSc2ncnc3ccccc23)cc1 | MIC | D 38/92 | 32 µM |
| CCCCCCCC/C=C/CCCCCCCCC(=O)Oc1c(OC)cc2ccnc3c2c1N(C)C=C3 | MIC | - | 0.3 µg/mL |
| CN1C(NNC(=O)c2ccc(Cl)nc2)=NS(=O)(=O)c2ccccc21 | MIC | ATCC 13950 | >16 µg/mL |
| C/C=C(\C)C(=O)Oc1ccc([C@H]2O[C@@H]2C)cc1 | MIC | - | 5.39 µg/mL |
| CCc1cc(C(C)(C)C)nc2c(NC(C)CCCN)cc(OC)c(Oc3cccc(C(F)(F)F)c3)c12 | EC50 | - | 20 µg/mL |
| CC(C)Sc1ncnc2ccccc12 | MIC | D 38/92 | 63 µM |
| C[C@@H]1CN(c2c(F)c(N)c3c(=O)c(C(=O)O)cn(C4CC4)c3c2F)C[C@H](C)N1 | MIC | N-846 (HIV-) | 16 µg/mL |
| CCCCSc1ncnc2ccccc12 | MIC | D 39/93 | 32 µM |
| CN1C(NNC(=O)c2cnccn2)=NS(=O)(=O)c2ccccc21 | MIC | ATCC 13950 | 2 µg/mL |
| CC[C@H]1OC(=O)[C@H](C)[C@@H](OC2C[C@@](C)(OC)[C@@H](O)[C@H](C)O2)[C@H](C)[C@@H](O[C@@H]2O[C@H](C)C[C@H](N(C)C)[C@H]2O)C(C)(O)C[C@@H](C)/C(=N\OCCCc2ccccc2)[C@H](C)[C@@H](O)[C@]1(C)O | MIC | 20066 | 1.56 µg/mL |

A second listing of 5 rows from above:

| SMILES | measure | strain or isolate | value |
|---|---|---|---|
| CC(=O)NC[C@H]1CN(c2ccc(N3CCN(c4ccc([N+](=O)[O-])s4)CC3)c(F)c2)C(=O)O1 | MIC | 1211/96 | 8 µg/mL |
| CC[C@H]1OC(=O)[C@H](C)[C@@H](O[C@H]2C[C@@](C)(OC)[C@@H](O)[C@H](C)O2)[C@H](C)[C@@H](O[C@@H]2O[C@H](C)C[C@H](N(C)C)[C@H]2O)[C@](C)(OC)C[C@@H](C)C(=O)[C@H](C)[C@@H](O)[C@]1(C)O | MIC | N-846 (HIV-) | 1 µg/mL |
| CC1(C)S[C@@H]2[C@H](NC(=O)[C@H](C(=O)[O-])c3ccsc3)C(=O)N2[C@H]1C(=O)[O-].[Na+].[Na+] | MIC | CIPT 140310034 | 25 µg/mL |
| C#CCNC(=O)O[C@H]1C(O[C@@H]2[C@@H](C)[C@H](O[C@H]3C[C@@](C)(OC)[C@@H](OC(C)=O)[C@H](C)O3)[C@@H](C)C(=O)O[C@H](CC)[C@@](C)(O)[C@H](O)[C@@H](C)/C(=N/OCCCC3CCCCC3)[C@H](C)CC2(C)O)O[C@H](C)C[C@@H]1N(C)C | MIC | 20073 | 0.39 µg/mL |
| CC[C@H]1OC(=O)[C@H](C)[C@@H](O[C@H]2C[C@@](C)(OC)[C@@H](O)[C@H](C)O2)[C@H](C)[C@@H](O[C@@H]2O[C@H](C)C[C@H](N(C)C)[C@H]2O)[C@](C)(OC)C[C@@H](C)C(=O)[C@H](C)[C@@H](O)[C@]1(C)O | MBC | N-260 | 16 µg/mL |

ECn is the concentration giving n% inhibition of infection, replication or growth. An empty or dashed field is not shown. A number after MIC or MFC names an inhibition level or a share of isolates.